The results in this text go back to patent publication US20220033522A1 (Janssen / Centocor, published 2022).

This experiment concerns the target polymeric immunoglobulin receptor (pIgR), his-tagged (human, UniProt P01833 19-638). Nature of the experiment: BLI (Octet), his-tagged pIgR on anti-His biosensor.

B1: SAD-S35 (antibody, human IgG1, kappa, V domains shown)
VH: QVQLVESGGGLVQPGGSLRLSCAASGITVSSNYMSWVRQAPGKGLEWVSVIYSGGSTYYADSVKGRFSISRDNSKNTLYLQMNSLRAEDTAVYYCARDLQERGGMDVWGQGTTVTVSS
VL: not shown
notes: also called Acro Biosystems cat. #SAD-S35
In the case of B1, the binding result is “no binding (tested: 10 µg/mL)”.
